Anti-infective test results gathered from many reports (values: NIAID ChemDB through PubChem).

Common to all: growth or infection tests; species: Mycobacterium tuberculosis

Conditions beyond the fields shown may differ between rows. An empty or dashed field is not shown. Inhibition is in % at the dose shown (toxicity tests: loss of growth or viability). MIC50, MIC90 and the like: level of inhibition, or share of isolates inhibited. MIC bound: limit read from a one-dose screen. ECn is the concentration giving n% inhibition of infection, replication or growth. Two numbers with a dash give a range or band.

smiles	strain	mutations	cell line	method	measure	dose	result
CCc1c2c(nc3ccc(OCc4ccc(OC)c(F)c4)cc13)-c1cc3c(c(=O)n1C2)COC(=O)C3(O)CC	H37Rv			resazurin	MIC		23.56 µM
C=C(C)[C@@H]1CC[C@@]2(C)[C@H]1[C@H]1CC[C@@H]3[C@@]4(C)CC[C@H](O)C(C)(C)[C@@H]4CC[C@@]3(C)[C@]1(C)C[C@@H]2O	H37Rv			BACTEC	MIC bound		>12.5 µg/mL
CCc1c2c(nc3ccc(OCc4ccccc4Br)cc13)-c1cc3c(c(=O)n1C2)COC(=O)C3(O)CC	XDR	Extensively drug-resistant		resazurin	MIC		22.26 µM
CCCCS(=O)(=O)Nc1ccc2[nH]c(C(=O)NC3COC3)c(C)c2c1	H37Rv			resazurin	MIC90		100 µM
COc1ccccc1N1CCN(C(=O)c2c(C)n([O-])c3cc(C)c(C)cc3[n+]2=O)CC1	H37Rv				inhibition	6.25 µg/mL	0%
CC1(C)Nc2cccc3cccc(c23)N1	H37Rv			BACTEC	inhibition	12.8 µg/mL	28%
O=C(Nc1ccccc1)N1CCc2c(c(-c3ccccc3)nn2Cc2cn(-c3ccc(I)cc3)nn2)C1	H37Rv			visual reading	MIC		166 µM
O=C(O)c1ccccc1C(=O)NC(Cc1cnc[nH]1)C(=O)O	H37Rv			BACTEC	MIC bound		>12.5 µg/mL
CC1COc2c(N3CCN(C)CC3)c(F)cc3c(=O)c(C(=O)O)cn1c23	21 strains				MIC90		1 µg/mL
Cc1c(C(=O)N2CCN(c3ccc([N+](=O)[O-])cc3)CC2)[n+](=O)c2cc(Cl)c(Cl)cc2n1[O-]	H37Rv				inhibition	6.25 µg/mL	0%
Cn1c2ccccc2c2cc(C=NNc3nc(-c4ccc(O)cc4)cs3)ccc21	H37Rv			fluorescence	MIC		37 µM
Cc1c(C(=O)Nc2ccccc2)[n+](=O)c2cc(Cl)ccc2n1[O-]	H37Rv		VERO		MIC		1.56 µg/mL
CCc1c2c(nc3ccc(OCc4c(F)c(F)c(F)c(F)c4F)cc13)-c1cc3c(c(=O)n1C2)COC(=O)C3(O)CC	XDR	Extensively drug-resistant		resazurin	MIC		5.46 µM
CCCCS(=O)(=O)Nc1ccc2[nH]c(C(=O)N3CCN(C(=O)OC(C)(C)C)CC3)c(C)c2c1	H37Rv			resazurin	MIC90		12–25 µM
COc1ccc(N2CCN(C(=O)c3c(C)n([O-])c4cc(Cl)c(Cl)cc4[n+]3=O)CC2)cc1	H37Rv				inhibition	6.25 µg/mL	0%
OCC(S)CS	H37Rv				MIC		50 µg/mL
COc1nc2ccc(Br)cc2cc1C(c1ccccc1)C(O)(CCCCN(C)C)c1cccc2ccccc12	H37Rv				MIC90		9.25 µg/mL
Cn1c2ccccc2c2cc(C=NNc3nc(-c4ccccc4)cs3)ccc21	H37Rv			fluorescence	EC50		35 µM
COc1ccc2c(c1)[n+]([O-])c(-c1ccccc1)c(N)[n+]2[O-]	PAS-R				MIC		3.1 µg/mL
O=C(Nc1ccccc1)N1CCc2c(c(-c3ccccc3)nn2Cc2cn(-c3ccccc3[N+](=O)[O-])nn2)C1	H37Rv			visual reading	MIC		192.1 µM
CCN(CC)CC[n+]1ccc2c(C)c3[nH]c4ccccc4c3c(C)c2c1	H37Rv		VERO	resazurin	MIC		0.78 µg/mL
Cc1cccc2c(=O)n3c(nc12)C(=O)c1ccccc1-3	H37Rv				MIC		0.5 µg/mL
CC(S)CSCCS	H37Rv				MIC		>100 µg/mL
Cn1c2ccccc2c2cc(C=NNc3nc(-c4cc5ccccc5oc4=O)cs3)ccc21	H37Rv			fluorescence	EC50		>25 µM
CCOC(=O)[C@H]1O[C@@H]([C@@]2(C)O[C@]3(O[C@]4(C=C[C@H]3O)O[C@H]([C@@H](C)C(=O)[C@@H](C)[C@@H](O)[C@H](C)C[C@H](C)c3c(Cl)cc(C)c(O)c3C(=O)O)[C@@H](C)C[C@H]4C)[C@H](C)[C@H]2OC)C[C@H]1O	INH-r				MIC		6.3 µg/mL
Cc1c(C(=O)NC(C)(C)C)[n+](=O)c2cc(Cl)ccc2n1[O-]	H37Rv				inhibition	6.25 µg/mL	51%
NC(=S)c1ccncc1	H37Rv (INH-resistant)				MIC		256 µM
Fc1cccc(CNCc2c[nH]c3ccccc23)c1F	H37Ra				MIC		64 µg/mL
CCCCS(=O)(=O)Nc1ccc2[nH]c(C(=O)NCc3cccc(Cl)c3)c(C)c2c1	H37Rv			resazurin	MIC90		>100 µM
CCCCCCCCc1ccc2c(c1)C(=O)c1nc3ccncc3c(=O)n1-2	TN2557RFLF:P (MDR)				MIC		<0.015 µg/mL
O=C(CSCc1ccccc1)OCC(S)CS	H37Rv				MIC		50 µg/mL
COc1ccc(CCN2COc3ccc4ccc(=O)oc4c3C2)cc1OC	H37Rv			BACTEC	inhibition	12.5 µg/mL	15%
O=C(O)CCN1CSC(=S)N(c2ccco2)C1	H37Rv				MIC		50 µg/mL
Fc1ccc(CNCCc2c[nH]c3ccccc23)cc1F	H37Ra				MIC		32 µg/mL
S=C1SCN(Cc2ccccc2)CN1C1CCCCC1	H37Rv				MIC		50 µg/mL
CC(=O)Nc1ccc(C(C2=C(O)c3ccccc3C(=O)C2=O)C2=C(O)c3ccccc3C(=O)C2=O)cc1	H37Rv			BACTEC	MIC		≥12.8 µg/mL
CC1COc2c(N3CCN(C)CC3)c(F)cc3c(=O)c(C(=O)O)cn1c23	SMI 1			agar	MIC		0.5 µg/mL
CN(CCO)c1ccc2c(=O)n3c(nc2c1)C(=O)c1cc(Cl)ccc1-3	H37Rv				MIC		0.13 µg/mL
Fc1cccc(CNCc2c[nH]c3ccccc23)c1	H37Ra				MIC		32 µg/mL
Cc1ccc(C(N)=S)cc1	H37Rv				MIC		512 µM
OC(CCl)c1ccc2ccc3c(c2c1)Nc1ccccc1S3	H37Rv			BACTEC	inhibition	12.5 µg/mL	93%
O=C1c2cc(F)ccc2-n2c1nc1ncccc1c2=O	H37Rv				MBC		4 µg/mL
CCCCS(=O)(=O)Nc1ccc2[nH]c(C(N)=O)c(C)c2c1	DRM167 32x2	G240S DG167-resistant		resazurin	MIC90		>100 µM
O=C(Nc1ccccc1)N1CCc2c(c(-c3ccccc3)nn2Cc2cn(-c3ccccc3)nn2)C1	H37Rv			visual reading	MIC		105 µM
CCCCS(=O)(=O)Nc1ccc2[nH]c(C(=O)NCC3CCC3)c(C)c2c1	H37Rv			resazurin	MIC90		>130 µM
S=C1SCN(C2CCCCC2)CN1c1ccco1	H37Rv				MIC		50 µg/mL
CC1=NN(C(=O)c2ccncc2)C(=O)C1N=Nc1ccc(C)cc1	H37Rv			BACTEC	inhibition	12.8 µg/mL	18%
COc1nc2ccc(Br)cc2cc1C(c1ccccc1)C(O)(CCN1CCOCC1)c1ccc2ccccc2c1	H37Rv				MIC90		59.76 µg/mL
Cc1ccc(S(=O)(=O)Nc2ccc(C(=O)OCC(S)CS)cc2)cc1	H37Rv				MIC		>50 µg/mL
O=c1c2cc([N+](=O)[O-])ccc2nc2n1CCCCC2	H37Rv			BACTEC	inhibition	12.5 µg/mL	5%
CN(CC(=O)O)c1ccc2c(=O)n3c(nc2c1)C(=O)c1cc(Cl)ccc1-3	H37Rv				MIC		1 µg/mL
Cc1c(C(=O)N2CCN(c3ccc([N+](=O)[O-])cc3)CC2)[n+](=O)c2ccccc2n1[O-]	H37Rv				inhibition	6.25 µg/mL	0%
COc1nc2cc(C)c(C)cc2cc1C(c1ccccc1)C(O)(CCN(C)C)c1cccc2ccccc12	H37Rv				MIC90		40.09 µg/mL
SCCC1CS1	H37Rv				MIC		50 µg/mL
O=C(Nc1ccccc1)N1CCc2c(c(-c3ccccc3)nn2Cc2cn(-c3ccc(F)cc3)nn2)C1	H37Rv			visual reading	MIC		>200 µM
COC(OC)c1ccc2c(c1)C(=O)c1nc3ccncc3c(=O)n1-2	H37Rv				MIC		0.13 µg/mL
COc1cccc2c1C(=O)c1c(O)c3c(c(O)c1C2=O)C[C@@](O)(/C(C)=N/NC(=O)NN)C[C@@H]3OC1CC(N)C(O)C(C)O1.Cl	H37Rv			BACTEC	MIC bound		>12.5 µg/mL
O=C(Nc1ccccc1)N1CCc2c(c(-c3ccccc3)nn2Cc2cn(-c3ccc(Br)c(C(F)(F)F)c3)nn2)C1	H37Rv			visual reading	MIC		161 µM
Fc1ccc(CNCc2c[nH]c3ccccc23)cc1	H37Ra				MIC		32 µg/mL
Cc1cc(C)c(C(N)=S)cn1	H37Rv (drug-susceptible)				MIC		2048 µM
O=[N+]([O-])c1c(Cl)cccc1-c1c[nH]cc1Cl	H37Rv			BACTEC	MIC bound		>6.25 µg/mL
Cn1c(-c2ccccc2)c(C(C[N+](=O)[O-])C[N+](=O)[O-])c2ccccc21	H37Ra				MIC		>128 µg/mL
NNC(=O)c1cccnc1	H37Rv (drug-susceptible)				MIC		512 µM
CCCCN1CN(CCC(=O)O)CSC1=S	H37Rv				MIC		25 µg/mL
CN(C)c1ccc(C(N)=S)cc1	H37Rv (INH-resistant)				MIC		128 µM
Cc1cc2c(cc1C)[n+](=O)c(C(=O)N1CCN(Cc3ccccc3)CC1)c(C)n2[O-]	H37Rv				inhibition	6.25 µg/mL	0%
Cc1ccc(S(=O)(=O)C(=S)N(C)N(C)C)cc1	PAS-R				MIC		12.8 µg/mL
Clc1ccccc1CNCc1c[nH]c2ccccc12	H37Ra				MIC		32 µg/mL
COc1ccc2cc1-c1cc(ccc1O)C[C@H]1c3cc4c(cc3CCN1C)Oc1c(OC)cc3c(c1O4)[C@H](C2)N(C)CC3	H37Rv			BACTEC	MIC bound		≤12.5 µg/mL
Clc1cccc(CNCc2c[nH]c3ccccc23)c1Cl	H37Ra				MIC		32 µg/mL
CCOC(=O)c1oc2ccc(OC)c3c2c1CCC3	H37Rv			BACTEC	inhibition	12.5 µg/mL	29%
CNc1ccc(C(N)=S)cc1	H37Rv				MIC		64 µM
O=C(N/N=C/c1ccc(Cl)cc1)C(c1ccccc1)N1CCCCC1	H37Rv			BACTEC	MIC bound		>12.5 µg/mL
Fc1ccc(F)c(CNCCc2c[nH]c3ccccc23)c1	H37Ra				MIC		64 µg/mL
Cc1c(C(=O)Nc2ccccc2)[n+](=O)c2cc(Cl)c(Cl)cc2n1[O-]	H37Rv		VERO		inhibition	6.25 µg/mL	100%
CCn1c(-c2ccccc2)c(C(C[N+](=O)[O-])C[N+](=O)[O-])c2ccccc21	H37Ra				MIC		128 µg/mL
NC(=S)c1ccccn1	H37Rv (INH-resistant)				MIC		256 µM
CN(C)CCC(O)(c1cccc2ccccc12)C(c1ccccc1)c1cc2cc(Br)ccc2[nH]c1=O	H37Rv				MIC90		8.58 µg/mL
Cc1ccc(S(=O)(=O)OC2CSS(=O)CC2OS(=O)(=O)c2ccc(C)cc2)cc1	H37Rv			BACTEC	MIC bound		>12.5 µg/mL
COc1ccc(-c2csc(NN=Cc3ccc4c(c3)c3ccccc3n4C)n2)cc1OC	H37Rv			fluorescence	EC90		>50 µM
CCc1c2c(nc3ccc(OCc4ccccc4[N+](=O)[O-])cc13)-c1cc3c(c(=O)n1C2)COC(=O)C3(O)CC	H37Rv			resazurin	MIC		5.92 µM
CN(C)c1ccc(/C=C/c2ccnc3ccccc23)c(Cl)c1	H37Rv			BACTEC	MIC bound		>12.5 µg/mL
Cn1c2ccccc2c2cc(C=NNc3nc(-c4ccc(Cl)cc4)cs3)ccc21	H37Rv			fluorescence	EC50		>200 µM
COc1nc2ccc(Br)cc2cc1C(c1ccccc1)C(O)(CCN1CCN(C)CC1)c1cccc2ccccc12	H37Rv				MIC90		9.68 µg/mL
CC1COc2c(N3CCN(C)CC3)c(F)cc3c(=O)c(C(=O)O)cn1c23	187 isolates				MIC50		0.5 µg/mL
Cn1c2ccccc2c2cc(C=NNc3nc(-c4ccc([N+](=O)[O-])cc4)cs3)ccc21	H37Rv			fluorescence	EC90		>200 µM
Nc1ncnc2c1Sc1nc(Cl)ccc1N2	H37Rv			BACTEC	MIC bound		>12.5 µg/mL
CCOC(=O)c1ccc2c(c1)C(=O)c1nc3ccccc3c(=O)n1-2	H37Rv				MIC		0.06 µg/mL
Cc1cc2c(cc1C)[n+](=O)c(C(=O)N1CCN(c3ccccc3)CC1)c(C)n2[O-]	H37Rv				inhibition	6.25 µg/mL	0%
CCc1cc(C(N)=S)ccn1	H37Rv (INH-resistant)				MIC		256–512 µM
O=C(SCC1CS1)C(Cl)(Cl)Cl	H37Rv				MIC		25 µg/mL

A second listing of 8 rows from above:

smiles,strain,mutations,cell line,method,measure,dose,result
CCc1c2c(nc3ccc(OCc4ccccc4Br)cc13)-c1cc3c(c(=O)n1C2)COC(=O)C3(O)CC,XDR,Extensively drug-resistant,,resazurin,MIC,,22.26 µM
CC(S)CSCCS,H37Rv,,,,MIC,,>100 µg/mL
Cc1ccc(S(=O)(=O)C(=S)N(C)N(C)C)cc1,PAS-R,,,,MIC,,12.8 µg/mL
NC(=S)c1ccccn1,H37Rv (INH-resistant),,,,MIC,,256 µM
CCCCS(=O)(=O)Nc1ccc2[nH]c(C(=O)NCc3cccc(Cl)c3)c(C)c2c1,H37Rv,,,resazurin,MIC90,,>100 µM
COc1ccc2c(c1)[n+]([O-])c(-c1ccccc1)c(N)[n+]2[O-],PAS-R,,,,MIC,,3.1 µg/mL
Fc1ccc(CNCCc2c[nH]c3ccccc23)cc1F,H37Ra,,,,MIC,,32 µg/mL
O=C(O)c1ccccc1C(=O)NC(Cc1cnc[nH]1)C(=O)O,H37Rv,,,BACTEC,MIC bound,,>12.5 µg/mL